Anti-infective test results gathered from many reports (values: NIAID ChemDB through PubChem).

Common to all: toxicity to cultured cells; cells: MT-4; endpoint: CC50

Neighbouring rows are from separate reports.

structure	result
CC(C)OP(=O)(COc1ccc(C[C@H](C[C@H](O)[C@H](Cc2ccccc2)NC(=O)OC(C)(C)C)C(=O)N[C@H]2c3ccccc3C[C@H]2O)cc1)OC(C)C	81 µM
Nc1ncnc2nn(CCOCP(=O)(O)O)nc12	>365 µM
CC/C(C)=C/Cc1c(O)cc2oc(-c3ccc(O)c(O)c3)cc(=O)c2c1O	55 µg/mL
CCCc1cc(=O)c2ccc3c(c2o1)[C@@H](OC(=O)C12CCC(C)(C(=O)O1)C2(C)C)[C@@H](OC(=O)C12CCC(C)(C(=O)O1)C2(C)C)C(C)(C)O3	37.65 µM
O=c1ccn([C@H]2C=C[C@@H](CO)O2)c(=O)[nH]1	27 µM
Nc1ncnc2c1ncn2CCOCP(=O)(O)O	229 µM
CCCCSc1cc(N)nc(Cl)n1	114 µM
CC(C)=CCC(Cc1c(O)cc(O)c2c1O[C@H](c1cc3c(cc1O)O[C@@H](c1ccc(O)cc1)[C@@H]3c1cc(O)cc(O)c1)CC2=O)C(=O)O	114 µg/mL
COC(=O)CNP(=O)(NCC(=O)OC)OC[C@H]1O[C@@H](n2cc(C)c(=O)[nH]c2=O)C[C@@H]1F	>150 µM
CCOC(=O)CNc1nc2c(o1)c(C)nn2-c1ccccc1	20 µM
CC(C)(C)OC(=O)N[C@@H](Cc1ccccc1)[C@@H](O)C[C@@H](Cc1ccc(OCP(=O)(O)O)cc1)C(=O)N[C@H]1c2ccccc2C[C@H]1O	>200 µM
CCC(C)Oc1cc(N)nc(OC(C)CC)n1	>300 µM
CC(C)(C)OC(=O)N[C@@H](Cc1ccccc1)[C@@H](O)C[C@@H](Cc1ccc(OCc2nnnn2Cc2ccccc2)cc1)C(=O)N[C@H]1c2ccccc2C[C@H]1O	>200 µM
CCC1(c2ccccc2)Oc2ccccc2-n2cccc2C1=O	2.9 µM
CC(C)(C)OC(=O)N1CCCN(C(=O)OC(C)(C)C)CCN(C(=O)OC(C)(C)C)CCCN(CCCCC(=O)Nc2ccn([C@H]3CS[C@@H](CO)O3)c(=O)n2)CC1	10 µM
CCC(C)Oc1cc(N)nc(S(=O)(=O)c2ccc(Cl)cc2)n1	82 µM
CC1(C)CCc2c(cc(O)c3c2OC(c2ccc(O)c(O)c2)CC3=O)O1	>10 µg/mL
CCCCSc1nc(N)cc(Nc2cccc3ccccc23)n1	39 µM
CC(C)=CCc1c(O)cc2c(c1O)C(=O)C[C@@H](c1ccc(O)cc1)O2	125 µg/mL
O=C(/C=C/c1ccccc1)c1ccccc1O	2 µg/mL
Nc1ncnc2c1ncn2[C@H]1CC[C@@H](CO)O1	>250 µM
CCC(C)Oc1cc(N)nc(S(=O)(=O)c2cccc(Cl)c2)n1	80 µM
CC1(C)S[C@H]([C@H](NC(=O)Cc2ccccc2)C(=O)NCc2ccccc2)N[C@H]1C(=O)NCCNC(=O)[C@@H]1N[C@@H]([C@H](NC(=O)Cc2ccccc2)C(=O)NCc2ccccc2)SC1(C)C	>110 µM
CCOCn1c(Cc2ccccc2)c(C(C)C)c(=O)[nH]c1=O	105 µM
O=c1[nH]cnc2c1ncn2[C@H]1CC[C@@H](CO)O1	>100 µM
CNC(=O)CSP(=O)(NCC(=O)OC)OCCOCn1cnc2c(=O)[nH]c(N)nc21	>70 µM
CCOCc1cc(=O)c2ccc3c(c2o1)[C@@H](OC(=O)C12CCC(C)(C(=O)O1)C2(C)C)[C@@H](OC(=O)C12CCC(C)(C(=O)O1)C2(C)C)C(C)(C)O3	>12.5 µM
CNC(=O)CSP(=O)(NCC(=O)OC)OC[C@H]1O[C@@H](n2cc(C)c(=O)[nH]c2=O)C[C@@H]1N=[N+]=[N-]	0.1 µM
CC(C)=CCc1c(-c2ccc(O)cc2O)oc2c3c(cc(O)c2c1=O)OC(C)(C)C=C3	9.1 µg/mL
CNc1nc2c(o1)c(C)nn2-c1ccccc1	31 µM
CCC(C)Oc1nc(N)cc(Sc2cccc(C)c2)n1	115 µM
Cc1cn([C@H]2CC[C@@H](CO)O2)c(=O)[nH]c1=O	>125 µM
Cc1coc2c3c(ccc2c1=O)OC(C)(C)[C@H](OC(=O)C12CCC(C)(C(=O)O1)C2(C)C)[C@@H]3OC(=O)C12CCC(C)(C(=O)O1)C2(C)C	3.14 µM
CCOP(=O)(OC[C@H]1O[C@@H](n2cc(C)c(=O)[nH]c2=O)C[C@@H]1F)SCC(=O)NC	2000 µM
CC(C)(C)OC(=O)N[C@@H](Cc1ccccc1)[C@@H](O)C[C@@H](Cc1ccc(OCP(=O)(OCc2ccccc2)OCc2ccccc2)cc1)C(=O)N[C@H]1c2ccccc2C[C@H]1O	200 µM
Nc1ccn([C@H]2CC[C@@H](CO)O2)c(=O)n1	>100 µM
CC(=O)O[C@@H]1[C@H](OC(=O)C23CCC(C)(C(=O)O2)C3(C)C)c2c(ccc3c(=O)cc(-c4ccccc4)oc23)OC1(C)C	6.25 µM
CC(C)=CCc1c(O)cc(O)c2c1O[C@H](c1ccc(O)cc1)CC2=O	95 µg/mL
Cc1cn([C@H]2C=C[C@@H](CO)O2)c(=O)[nH]c1=O	>100 µM
CCOCc1cc(=O)c2ccc3c(c2o1)[C@@H](OC(=O)C12CCC(C)(C(=O)O1)C2(C)C)[C@@H](OC(=O)C(C)C)C(C)(C)O3	>17.5 µM
Cc1nn(C)c2c1nnn2Cc1ccccc1	>200 µM
CNC(=O)CSP(=O)(NCC(=O)OC)OC[C@@H]1CC[C@H](n2cc(C)c(=O)[nH]c2=O)O1	20 µM
Cc1cn([C@H]2C[C@H](N=[N+]=[N-])[C@@H](COP(=O)(O)O)O2)c(=O)[nH]c1=O	>100 µM
CC(C)=CCc1cc([C@@H]2CC(=O)c3c(O)cc(O)c(CC=C(C)C)c3O2)ccc1O	69 µg/mL
Nc1nc2c(nnn2CCOCP(=O)(O)O)c(=O)[nH]1	69 µM
Cc1nn(-c2ccccc2)c2nc(NCc3ccccc3)oc12	23 µM
CCc1cc(=O)c2cc(C(C)(C)C)c3c(c2o1)[C@@H](OC(=O)C12CCC(C)(C(=O)O1)C2(C)C)[C@@H](OC(=O)C12CCC(C)(C(=O)O1)C2(C)C)C(C)(C)O3	>14.15 µM
N#Cc1cc(Cl)cc(Oc2cc(OCc3[nH]nc4ccncc34)ccc2Cl)c1	>8.3 µM
COc1ccc2cc([C@H](C)C(=O)O)ccc2c1	1000 µM
CCOP(=O)(O)COCCn1nnc2c(=O)[nH]c(N)nc21	>315 µM
CCC(C)Oc1cc(=O)[nH]c(Sc2ccccc2OC)n1	168 µM
COc1ccc2c(c1)c(CC(=O)O)c(C)n2C(=O)c1ccc(Cl)cc1	>1000 µM
CCC(C)Oc1cc(=O)[nH]c(Sc2cccc(C)c2)n1	171 µM
CC(C)c1cc(=O)c2ccc3c(c2o1)[C@@H](OC(=O)C12CCC(C)(C(=O)O1)C2(C)C)[C@@H](OC(=O)C12CCC(C)(C(=O)O1)C2(C)C)C(C)(C)O3	>15.04 µM
CC(C)(C)OC(=O)N1CCCN(C(=O)OC(C)(C)C)CCN(C(=O)OC(C)(C)C)CCCN(CCCCC(=O)OC[C@@H]2CC[C@H](n3cnc4c(=O)[nH]cnc43)O2)CC1	50 µM
CC1(C)Oc2ccc3ccc(=O)oc3c2[C@@H](OC(=O)C23CCC(C)(C(=O)O2)C3(C)C)[C@H]1OC(=O)C12CCC(C)(C(=O)O1)C2(C)C	>16.1 µM
CC(C)(C)OC(=O)N1CCCN(C(=O)OC(C)(C)C)CCN(C(=O)OC(C)(C)C)CCCN(C(=O)CCCC(=O)OC[C@@H]2CC[C@H](n3ccc(N)nc3=O)O2)CC1	50 µM
Cc1cn([C@H]2C[C@H](N=[N+]=[N-])[C@@H](CO)O2)c(=O)[nH]c1=O	4.6 µM
CC(C)=CCC/C(C)=C/Cc1c(O)cc(O)c2c1O[C@H](c1ccc(O)cc1)CC2=O	21 µg/mL

Repeating the first 6 entries:

structure | result
CC(C)OP(=O)(COc1ccc(C[C@H](C[C@H](O)[C@H](Cc2ccccc2)NC(=O)OC(C)(C)C)C(=O)N[C@H]2c3ccccc3C[C@H]2O)cc1)OC(C)C | 81 µM
Nc1ncnc2nn(CCOCP(=O)(O)O)nc12 | >365 µM
CC/C(C)=C/Cc1c(O)cc2oc(-c3ccc(O)c(O)c3)cc(=O)c2c1O | 55 µg/mL
CCCc1cc(=O)c2ccc3c(c2o1)[C@@H](OC(=O)C12CCC(C)(C(=O)O1)C2(C)C)[C@@H](OC(=O)C12CCC(C)(C(=O)O1)C2(C)C)C(C)(C)O3 | 37.65 µM
O=c1ccn([C@H]2C=C[C@@H](CO)O2)c(=O)[nH]1 | 27 µM
Nc1ncnc2c1ncn2CCOCP(=O)(O)O | 229 µM

CCn is the concentration with n% toxicity to the cells.